Measured values from several laboratories, pooled; numbers as filed in NIAID ChemDB.

Common to all: whole-cell or culture tests; organism: HIV-1; measure: EC50

Lines come from different laboratories, so protocols vary. ECn is the concentration giving n% inhibition of infection, replication or growth. An empty or dashed field is not shown.

compound	conditions	read by	strain or isolate	changes	cells	value
CC[C@@H](C)[C@H](C(=O)O)N1C[C@H](CN2CCC(c3cc(Cc4ccc(OC)c(OC)c4)nn3CC)CC2)[C@@H](c2cccc(F)c2)C1		β-galactosidase	BaL		HeLa	<0.0004 µM
CCCc1cc(=O)oc2c3c(c4c(c12)OC(C)(C)C=C4)O[C@@H](C)[C@H](C)[C@@H]3O		XTT	NL4-3	RT-V108I	CEM + CEM-SS	0.2 µM
c1ccc(CNCc2ccc(CN3CCCNCCNCCCNCC3)cc2)nc1		cytopathic effect / MTS	RF		MT-4	0.0074 µM
COc1cc(C(F)(F)F)cc(S(=O)(=O)c2cccc(N)c2C#N)c1		β-galactosidase		RT-E138K	HeLa + HELA CD4+	0.029 µM
O=C1N(Cc2cccc(CO)c2)[C@H](Cc2ccccc2)[C@H](O)[C@@H](O)[C@@H](Cc2ccccc2)N1Cc1cccc(CO)c1		hybridisation	RF		MT-2	<0.038 µM
Cc1[nH]c(=O)c(F)cc1Cn1cnc(C(F)(F)C(F)F)c(Oc2cc(C(F)F)cc(C#N)c2C)c1=O		luminescence				34.4 µM
O=C1N(Cc2ccc(CO)cc2)[C@H](Cc2ccccc2)[C@H](O)[C@@H](O)[C@@H](Cc2ccccc2)N1Cc1ccc(CO)cc1		virus yield	IIIB		MT-2	<0.11 µM
C1CNCCNCCCN(CCCN2CCCNCCNCCCNCC2)CCNC1		plaque count / antigen	IIIB		CD4+HELA + HeLa	3.73 µM
CO[P@](=O)(c1cc(C)cc(/C=C/C#N)c1)c1c(C(N)=O)[nH]c2ccc(Cl)c(F)c12			NL4-3		MT-4	0.002 µM
C=C(C)[C@@]1(OC(C)=O)[C@H](OC(C)=O)[C@@H]2[C@H](OC(C)=O)[C@@]3(C)O[C@@]4([C@@H]3OC(=O)c3ccccc3)[C@@H](OC(C)=O)[C@@H](C)C[C@H]4[C@@]2(O)[C@H](C)[C@@H]1OC(=O)c1ccccc1		cytopathic effect / syncytia	IIIB		C8166	12.55 µg/mL
CCCN(C)C(=O)Oc1nsnc1-c1c(Cl)ccc(N)c1Cl		MTT	IIIB-R		MT-4	4.8 µM
CC(=O)N1CCC(C(=O)N(CCCN2CCC(Cc3ccc(C(N)=O)cc3)CC2)c2ccc(C)c(Cl)c2)CC1		luciferase	R5 subtype B_8 recombinant		U87 (CD4+ CCR5+) + U87	0.016 µM
Cc1nc2ccccc2c(-c2ccc3c4c(ccnc24)[C@@H]2C[C@H]32)c1[C@H](OC(C)(C)C)C(=O)O		ATP	IIIB		MT-4	4.18 µM
O=C(CC1(O)C(=O)Nc2ccccc21)c1cccc(Br)c1		cytopathic effect / syncytia	IIIB		C8166	227 µM
Cc1ccc(-c2ccc3c(c2)C=C(C(=O)Nc2ccc(C[N+](C)(C)C4CCOCC4)cc2)CCC3)cc1		antigen	ADA R5		PBMC	0.016 µg/mL
C=C(C)[C@@]1(OC(=O)c2ccccc2)[C@H](OC(C)=O)[C@@H]2[C@H](OC(C)=O)[C@@]3(C)O[C@@]4([C@@H]3OC(=O)c3ccccc3)[C@@H](OC(C)=O)[C@@H](C)C[C@H]4[C@@]2(O)[C@H](C)[C@@H]1OC(C)=O		cytopathic effect / syncytia	IIIB		C8166	61.21 µg/mL
Cc1cccc(C(=O)CC2(O)C(=O)Nc3ccccc32)c1		cytopathic effect / syncytia	IIIB		C8166	178 µM
O=C1N(Cc2cccc(O)c2)[C@H](Cc2ccccc2)[C@H](O)[C@@H](O)[C@@H](Cc2ccccc2)N1Cc1ccc2ccccc2c1		hybridisation	RF		MT-2	<0.145 µM
Nc1ncnc2c1ncn2[C@@H]1O[C@H](OCP(=O)(O)O)C=C1F	4 d	p24 / ELISA / antigen	LJM (subtype B)		PBMCs	8.2 µM
CC(C)CN(C[C@@H](O)[C@H](Cc1ccccc1)NC(=O)O[C@H]1CCOC1)S(=O)(=O)c1ccc(N)cc1	clinical isolate, multidrug-resistant	p24 / luminescence	Clinical isolate	L10I K14R L33I M36I M46I F53I K55R I62V L63P A71V G73S V82A L90M I93L	PBMC	0.048 µM
O=C(CC1(O)C(=O)Nc2ccccc21)c1ccc(F)cc1		cytopathic effect / syncytia	IIIB		C8166	216 µM
O=C(NC(=S)Nc1ccc(Br)cn1)c1ccccc1[N+](=O)[O-]	pseudotyped	p24 / luciferase	NL4-3		TZM-bl	0.48 µM
CCn1nc(Cc2ccc(F)cc2)cc1C1CCN(C[C@H]2CN([C@@H](C(=O)O)C3CCCCC3)C[C@@H]2c2cccc(F)c2)CC1		β-galactosidase	BaL		HeLa	<0.033 µM
CCC(=O)c1ccc(F)c([C@@H]2C[C@@H]2NC(=O)Nc2ccc(C#N)cn2)c1O		absorbance	35764-2		PBMC	0.0001 µM
Cc1ccnc2c1NC(=O)c1cccnc1N2C1CC1		β-galactosidase	NNRTI-resistant (RT E138K)	RT-E138K	MAGI	0.065 µM
C[C@H](Cn1cnc2c(N)ncnc21)OCP(=O)(O)O	4 d	p24 / ELISA / antigen	B940374 (subtype B)		PBMCs	2.8 µM
Cc1cc(O)cc(S(=O)(=O)c2cccc(N)c2C#N)c1		β-galactosidase		RT-V108I Y181C	HeLa + HELA CD4+	36 µM
CCCCCCCCOCCCCC(=O)O		p24 / RT activity	IIIB		H9	>40 µM
CC[C@@H](C)[C@H](C(=O)O)N1C[C@H](CN2CCC(c3cc(Cc4ccc(S(=O)(=O)c5ccccc5)cc4)nn3CC)CC2)[C@@H](c2cccc(F)c2)C1	50% human serum	β-galactosidase	BaL		HeLa	<0.033 µM
Cc1cn([C@H]2C[C@H](N=[N+]=[N-])[C@@H](CO)O2)c(=O)[nH]c1=O	4 d	p24 / ELISA / antigen	UG-92-024 (subtype D)		PBMCs	0.13 µM
Cc1cn([C@H]2C[C@H](N=[N+]=[N-])[C@@H](CO)O2)c(=O)[nH]c1=O	pseudotyped	p24 / luciferase	NL4-3		TZM-bl	0.14 µg/mL
CCn1nc(Cc2ccc(OC(F)(F)F)cc2)cc1C1CCN(C[C@H]2CN([C@@H](C(=O)O)C(C)C)C[C@@H]2c2cccc(F)c2)CC1	50% human serum	β-galactosidase	BaL		HeLa	<0.3 µM
O=C1N(Cc2ccccc2)[C@H](Cc2ccccc2)[C@H](O)[C@@H](O)[C@@H](Cc2ccccc2)N1Cc1ccc2ccccc2c1		hybridisation	RF		MT-2	<7.5 µM
Cc1cn([C@H]2C[C@H](N=[N+]=[N-])[C@@H](CO)O2)c(=O)[nH]c1=O		XTT	NL4-3	RT-Y181C	CEM + CEM-SS	0.01 µM
COc1ccccc1C(=O)CC1(O)C(=O)Nc2ccccc21		cytopathic effect / syncytia	IIIB		C8166	41.29 µM
CC(C)=CCN1Cc2cc(Cl)cc3[nH]c(=S)n(c23)C[C@@H]1C		plaque count	RTMC	RT-D67N K70R T215Y K219Q	HT4 + HT4 LacZ-1	0.16 µM
COC(=O)N[C@H](C(=O)N[C@@H](Cc1ccccc1)[C@@H](O)CN(Cc1ccc(-c2ccccn2)cc1)NC(=O)[C@@H](NC(=O)OC)C(C)(C)C)C(C)(C)C		p24 / luminescence	97ZA003		PBMC	0.003 µM
C=C(C)[C@@]1(OC(=O)c2ccccc2)[C@H](OC(C)=O)[C@@H]2[C@H](OC(C)=O)[C@@]3(C)O[C@@]4([C@@H]3OC(C)=O)[C@@H](OC(C)=O)[C@@H](C)C[C@H]4[C@@]2(O)[C@H](C)[C@@H]1OC(C)=O		cytopathic effect / syncytia	IIIB		C8166	9.05 µg/mL
Cc1cn([C@H]2C=C[C@@H](CO)O2)c(=O)[nH]c1=O		recombinant virus assay	Clinical isolate	M41L/D67N/K70R/Y181C/G190A/L210W/T215Y/K219E	MT-2	2.256 µM
CCOC(=O)[C@H](C)N[P@](=O)(CO[C@@H]1C=C(F)[C@H](n2cnc3c(N)ncnc32)O1)Oc1ccccc1		p24 / ELISA / antigen			Macrophages	0.051 µM
Cc1cc(C#N)cc(C)c1Oc1nc(Nc2ccc(C#N)cc2)nc(N)c1Br		absorbance	93TH051		PBMC	0.0008 µM
COc1ccc(C(=O)CC2(O)C(=O)Nc3ccc(Cl)cc32)cc1OC		cytopathic effect / syncytia	IIIB		C8166	61.91 µM
Nc1nc(=O)n([C@@H]2CS[C@H](CO)O2)cc1F		recombinant virus assay	Clinical isolate	T69ins/K70R/M184V/K219Q	MT-2	>13.3 µM
CCn1nc(Cc2ccc(C(C)C)cc2)cc1C1CCN(C[C@H]2CN([C@@H](C(=O)O)C(C)(C)C)C[C@@H]2c2cccc(F)c2)CC1	50% human serum	β-galactosidase	BaL		HeLa	<0.033 µM
Cc1cc(Br)cc(S(=O)(=O)c2cccc(N)c2C#N)c1		β-galactosidase		RT-G190A	HeLa + HELA CD4+	0.03 µM
CC(C)OC(=O)[C@H](C)NP(=O)(CO[C@@H]1C=C(F)[C@H](n2cnc3c(N)ncnc32)O1)Oc1ccccc1		ATP	IIIB		MT-2	0.81 µM
Cc1cn([C@H]2C[C@H](N=[N+]=[N-])[C@@H](CO)O2)c(=O)[nH]c1=O		p24 / RT activity	BaL		PBMC	0.00265 µM
O=C1N(Cc2cccnc2)[C@H](Cc2ccccc2)[C@H](O)[C@@H](O)[C@@H](Cc2ccccc2)N1Cc1cccnc1		hybridisation	RF		MT-2	<8.8 µM
CCCc1cc(=O)oc2c3c(c4c(c12)OC(C)(C)C=C4)O[C@H](C)[C@@H](C)[C@@H]3O		XTT	IIIB		CEM + CEM-SS	0.1 µM
C1CNCCNCCCN(CCCN2CCCNCCNCCCNCC2)CCNC1		cytopathic effect / MTS	IIIB		MT-4	0.994 µM
CC(C)[C@H](NC(=O)c1ccc2ccccc2n1)C(=O)N[C@@H](Cc1ccccc1)[C@H](O)CN1CC[C@@H](OCc2ccncc2)C[C@H]1C(=O)NC(C)(C)C		p24 / ELISA / antigen	HXB2		C8166	0.0005 µM
Nc1cccc(CN2C(=O)N(Cc3cccc(N)c3)[C@H](Cc3ccccc3)[C@H](O)[C@@H](O)[C@H]2Cc2ccccc2)c1		virus yield	THAI (PR-D60E I84V)	PR-D60E I84V	MT-2	<1.26 µM
Cc1ccnc2c1NC(=O)c1cccnc1N2C1CC1		XTT	RF		CEM + CEM-SS	0.2 µM
Cc1cc(Cl)cc(S(=O)(=O)c2cccc(N)c2C#N)c1		β-galactosidase		RT-V108I	HeLa + HELA CD4+	0.011 µM
COc1cccc(C(=O)CC2(O)C(=O)Nc3ccc(Cl)cc32)c1		cytopathic effect / syncytia	IIIB		C8166	50.11 µM
[Li+]		antigen	GUN1		C8166	>1000 µg/mL